Compound potency records, mixed from different reports. Data source: NIAID ChemDB in PubChem.

All rows: growth or infection tests; agent: Rhinovirus; cells: HeLa; measure: EC50

ECn: concentration that inhibits the pathogen or its effect by n%.

compound | strain | read by | result
COc1ccc(-c2cc(N3CCCC3)no2)c(O)c1 | Serotype 14 | cytopathic effect | >384 µM
CCOC(=O)c1ccc(OCCCCC(=O)c2ccc(C)cc2)cc1 | Serotype 2 | cytopathic effect | 5 µM
CS(=O)(=O)c1ccc(Cc2ccc(Sc3ccccc3)cc2)nc1 | TYPE 64 | cytopathic effect | 1.3 µg/mL
Cc1nc(-c2cc(C)c(OCCCc3cc(C4CC4)no3)c(C)c2)no1 | Serotype 6 | cytopathic effect | 0.84 µg/mL
N#Cc1ccc(OCCCCC(=O)c2ccc(Cl)cc2)cc1 | Serotype 14 | cytopathic effect | >319 µM
COc1ccc(CCCOc2cc(C)c(-c3noc(C(F)F)n3)c(C)c2)nn1 | serotypes 3 4 5 9 16 18 38 66 75 67 | cytopathic effect | 0.03 µg/mL
COC(=O)c1cc(CCCOc2c(C)cc(-c3noc(C)n3)cc2C)on1 | Serotype 50 | cytopathic effect | 0.032 µg/mL
Cc1cc(-c2noc(C(F)F)n2)cc(C)c1OCCCc1cccnn1 | serotypes 3 4 5 9 16 18 38 66 75 67 | cytopathic effect | 0.1315 µg/mL
CCCCCCS(=O)(=O)c1ccc(Oc2ccc(C(=O)c3ccccc3)cc2)nc1 | TYPE 64 | cytopathic effect | >10 µg/mL
CSc1ccc(C(=O)CCCCOc2ccc(C#N)cc2)cc1 | Serotype 2 | cytopathic effect | >307 µM
Cc1cc(CCCCCOc2c(Cl)cc(C3=NCCO3)cc2Cl)on1 | TYPE 16 | plaque count | 0.048 µg/mL
CCOC(=O)c1ccc(OCCCCC(=O)c2ccccc2)cc1 | Serotype 2 | cytopathic effect | 4.9 µM
CCS(=O)(=O)c1ccc(NCc2ccc(Cl)c(Cl)c2)nc1C#N | TYPE 1A | cytopathic effect | 3.1 µg/mL
Cc1cc(OCCCc2ccc(=O)[nH]n2)cc(C)c1-c1noc(C(F)F)n1 | serotypes 3 4 5 9 16 18 38 66 75 67 | cytopathic effect | 0.05 µg/mL
COCc1cc(CCCOc2c(Cl)cc(-c3noc(C)n3)cc2Cl)on1 | Serotype 15 | cytopathic effect | 0.137 µg/mL
Cc1cc(CCCCCOc2c(Cl)cc(C3=NCCO3)cc2Cl)on1 | Serotype 2 | cytopathic effect | 0.03 µM
CS(=O)(=O)c1ccc(NCc2ccc(Cl)c(Cl)c2)nc1 | TYPE 29 | cytopathic effect | 1.3 µg/mL
C#CCOc1cc(OC)ccc1-c1cc(N(CC)CC)no1 | Serotype 15 (group B) | cytopathic effect | 2.5 µM
CC(=O)Oc1ccc(CCCOc2cc(C)c(-c3noc(C)n3)c(C)c2)nn1 | serotypes 3 4 5 9 16 18 38 66 75 67 | cytopathic effect | 0.2 µg/mL
CS(=O)(=O)c1ccc(Cc2ccc(Cl)c(Cl)c2)nc1 | TYPE 1A | cytopathic effect | <0.3 µg/mL
CCOc1cc(OC)ccc1-c1cc(N(CC)CC)no1 | Serotype 89 (group B) | cytopathic effect | 10.3 µM
CCOC(=O)c1ccc(OCCC2CCN(c3ccc(C)nn3)CC2)cc1 | Serotype 3 | cytopathic effect | <0.1 µg/mL
COc1ccc(CNc2ccc(S(C)(=O)=O)cn2)cc1OC | TYPE 64 | cytopathic effect | >10 µg/mL
CCN(CC)c1cc(-c2ccc(OC)cc2OC)on1 | Serotype 59 (group B) | cytopathic effect | 91 µM
CS(=O)(=O)c1ccc(Oc2ccc(C(=O)c3ccccc3)cc2)nc1 | TYPE 13 | cytopathic effect | >5 µg/mL
CCN(CC)c1cc(-c2ccc(OC)cc2O)on1 | Serotype 2 | cytopathic effect | >381 µM
CCOC(=O)c1cc(Cl)c(OCCCCC(=O)c2ccc(Cl)cc2)c(Cl)c1 | Serotype 14 | cytopathic effect | 7.6 µM

Again, the opening 3 rows:

COc1ccc(-c2cc(N3CCCC3)no2)c(O)c1 ; strain: Serotype 14 ; read by: cytopathic effect ; result: >384 µM
CCOC(=O)c1ccc(OCCCCC(=O)c2ccc(C)cc2)cc1 ; strain: Serotype 2 ; read by: cytopathic effect ; result: 5 µM
CS(=O)(=O)c1ccc(Cc2ccc(Sc3ccccc3)cc2)nc1 ; strain: TYPE 64 ; read by: cytopathic effect ; result: 1.3 µg/mL

Neighbouring rows are from separate reports.